Laboratory results taken from US4346087A, “Antibacterial surface active agent containing azaalkenelactam” (priority 1979, dated 1982).

Tests used:
[1] = Metal corrosion inhibition in brake fluid A, tin-plate; settings: 100°±2° C., 120±2 hours, blank -0.15
[2] = Metal corrosion inhibition in brake fluid A, cast iron; settings: 100°±2° C., 120±2 hours, blank -0.14
[3] = Metal corrosion inhibition in brake fluid A, aluminum; settings: 100°±2° C., 120±2 hours, blank +0.07
[4] = Metal corrosion inhibition in brake fluid A, brass; settings: 100°±2° C., 120±2 hours, blank -0.20
[5] = Metal corrosion inhibition in brake fluid A, steel; settings: 100°±2° C., 120±2 hours, blank -0.20
[6] = Metal corrosion inhibition in brake fluid A, copper; settings: 100°±2° C., 120±2 hours, blank +0.18
[7] = Table 4, azaalkenelactams […] by weight in brake fluid A
[8] = Table 5, carboxylate derivatives […] by weight in brake fluid A

| Compound | Weight change, tin-plate [1, 7] | Weight change, cast iron [2, 7] | Weight change, aluminum [3, 7] | Weight change, brass [4, 7] | Weight change, steel [5, 7] | Weight change, copper [6, 7] | Weight change, tin-plate [1, 8] | Weight change, cast iron [2, 8] | Weight change, aluminum [3, 8] | Weight change, brass [4, 8] | Weight change, steel [5, 8] | Weight change, copper [6, 8] |
| --- | --- | --- | --- | --- | --- | --- | --- | --- | --- | --- | --- | --- |
| CCCCCCCCCCC(O)CN1CCN=CC(C)C1=O (stereo not drawn) [Example 43, 4-(2-hydroxy)dodecyl-6-methyl-3,6-dihydro-2H-1,4-diazepin-5-one] | -0.01 mg/cm^2 | -0.02 mg/cm^2 | +0.01 mg/cm^2 | -0.02 mg/cm^2 | 0 mg/cm^2 | +0.01 mg/cm^2 |  |  |  |  |  |  |
| CCCCCCCCCCCC(=O)NCCN1CC[N+](CC(=O)[O-])=CC(C)C1=O (stereo not drawn) [4-lauramidoethyl-6-methyl-1-azonia-4-azacyclohept-7-en-5-one-1-acetate] |  |  |  |  |  |  | -0.03 mg/cm^2 | -0.02 mg/cm^2 | +0.02 mg/cm^2 | 0 mg/cm^2 | -0.03 mg/cm^2 | -0.01 mg/cm^2 |
| CCCCCCCCCCCCCCC(O)CNCCN1CCCN=CC(C)(C)C1=O (stereo not drawn) [Example 61, 1-(2-hydroxyhexadecyl)aminoethyl-3,3-dimethyl-6,7,8-trihydro-1,5-diazocin-5-one] | 0 mg/cm^2 | -0.01 mg/cm^2 | +0.01 mg/cm^2 | 0 mg/cm^2 | -0.01 mg/cm^2 | +0.01 mg/cm^2 |  |  |  |  |  |  |
| CCCCCCCCCCCCCCNCCN1CCN=CCCC1=O [Example 53, 4-tetradecylaminoethyl-2,3,6,7-tetrahydro-1,4-diazocin-5-one] | -0.01 mg/cm^2 | -0.01 mg/cm^2 | +0.01 mg/cm^2 | -0.01 mg/cm^2 | 0 mg/cm^2 | 0 mg/cm^2 |  |  |  |  |  |  |
| CCCCCCCC(=O)OCCN1CC[N+](CC(=O)[O-])=C(C)CC1=O [4-octoyloxyethyl-7-methyl-1-azonia-4-azacyclohept-7-en-5-one-1-acetate] |  |  |  |  |  |  | -0.02 mg/cm^2 | -0.02 mg/cm^2 | +0.01 mg/cm^2 | 0 mg/cm^2 | -0.03 mg/cm^2 | +0.01 mg/cm^2 |
| CCCCCCCCCCCCCCC(O)CNCCN1CC[N+](CC(=O)[O-])=CCC(C)C1=O (stereo not drawn) [4-(2-hydroxyhexadecyl)aminoethyl-6-methyl-4-aza-1-azoniacyclooct-8-en-5-one-1-acetate] |  |  |  |  |  |  | -0.01 mg/cm^2 | -0.01 mg/cm^2 | +0.02 mg/cm^2 | 0 mg/cm^2 | -0.02 mg/cm^2 | -0.01 mg/cm^2 |
| CCCCCCCCCCCC(=O)OCCN1CCC[N+](CC(=O)[O-])=C(C)CC1=O [1-lauroyloxyethyl-4-methyl-1-aza-5-azoniacyclooct-4-en-2-one-5-acetate] |  |  |  |  |  |  | -0.03 mg/cm^2 | -0.02 mg/cm^2 | +0.02 mg/cm^2 | 0 mg/cm^2 | -0.02 mg/cm^2 | 0 mg/cm^2 |
| CCCCCCCCCCCC(=O)NCCN1CCN=C(C)CC1=O [Example 9, 4-lauramidoethyl-7-methyl-3,6-dihydro-2H-1,4-diazepin-5-one] | 0 mg/cm^2 | -0.01 mg/cm^2 | 0 mg/cm^2 | -0.02 mg/cm^2 | 0 mg/cm^2 | +0.03 mg/cm^2 |  |  |  |  |  |  |
| CCCCCC[C@@H](O)C/C=C\CCCCCCCC(=O)NCCN1CC[N+](CC(=O)[O-])=CC(C)(C)C1=O [4-ricinolamidoethyl-6,6-dimethyl-1-azonia-4-azacyclohept-7-en-5-one-1-acetate] |  |  |  |  |  |  | -0.02 mg/cm^2 | -0.03 mg/cm^2 | +0.02 mg/cm^2 | -0.02 mg/cm^2 | -0.01 mg/cm^2 | -0.02 mg/cm^2 |
| CCCCCCCCCCCCNCCNCCN1CCN=C(C)CC1=O [Example 34, 4-dodecylaminoethylaminoethyl-7-methyl-3,6-dihydro-2H-1,4-diazepin-5-one] | 0 mg/cm^2 | -0.01 mg/cm^2 | 0 mg/cm^2 | -0.01 mg/cm^2 | -0.01 mg/cm^2 | +0.01 mg/cm^2 |  |  |  |  |  |  |
| CCCCCCCCCCCC(=O)OCCN1CC[N+](CC(=O)[O-])=CC(C)C1=O (stereo not drawn) [4-lauroyloxyethyl-6-methyl-1-azonia-4-azacyclohept-7-en-5-one-1-acetate] |  |  |  |  |  |  | -0.03 mg/cm^2 | -0.04 mg/cm^2 | +0.02 mg/cm^2 | -0.02 mg/cm^2 | -0.03 mg/cm^2 | -0.02 mg/cm^2 |
| CCCCCCCC/C=C\CCCCCCCC(=O)OCCN1CCN=C(C)CC1=O [Example 13, 4-oleoyloxyethyl-7-methyl-3,6-dihydro-2H-1,4-diazepin-5-one] | 0 mg/cm^2 | -0.03 mg/cm^2 | +0.03 mg/cm^2 | -0.02 mg/cm^2 | -0.02 mg/cm^2 | +0.01 mg/cm^2 |  |  |  |  |  |  |
| CCCCCCCCC=CCCCCCCCCN1CCN=CCCC1=O [Example 55, 4-(9-octadecenyl)-2,3,6,7-tetrahydro-1,4-diazocin-5-one] | 0 mg/cm^2 | -0.02 mg/cm^2 | +0.02 mg/cm^2 | -0.01 mg/cm^2 | -0.01 mg/cm^2 | +0.01 mg/cm^2 |  |  |  |  |  |  |
| 4-(2-hydroxyhexadecyl)aminoethyl-6-methyl-3,6-dihydro-2H-1,4-diazepin-5-one [Example 41] | -0.01 mg/cm^2 | -0.01 mg/cm^2 | 0 mg/cm^2 | 0 mg/cm^2 | -0.01 mg/cm^2 | +0.01 mg/cm^2 |  |  |  |  |  |  |
| CCCCCCCCCCCCC(O)CN1CCCN=C(C)CC1=O (stereo not drawn) [Example 27, 1-(2-hydroxy)tetradecyl-4-methyl-3,6,7,8-tetrahydro-1,5-diazocin-2-one] | -0.01 mg/cm^2 | 0 mg/cm^2 | +0.02 mg/cm^2 | -0.03 mg/cm^2 | -0.01 mg/cm^2 | +0.01 mg/cm^2 |  |  |  |  |  |  |
| 1-hydroxyethyl-2-undecylimidazolineumbetaine [reference compound] |  |  |  |  |  |  | -0.12 mg/cm^2 | -0.12 mg/cm^2 | +0.10 mg/cm^2 | -0.24 mg/cm^2 | -0.16 mg/cm^2 | -0.12 mg/cm^2 |
| CCCCCCCCCCCCCCC(O)CNCCN1CC[N+](CC(=O)[O-])=CC(C)(C)C1=O (stereo not drawn) [4-(2-hydroxyhexadecyl)aminoethyl-6,6-dimethyl-1-azonia-4-azacyclohept-7-en-5-one-1-acetate] |  |  |  |  |  |  | -0.02 mg/cm^2 | -0.01 mg/cm^2 | 0 mg/cm^2 | -0.02 mg/cm^2 | -0.02 mg/cm^2 | -0.02 mg/cm^2 |
| CC1=[N+](CC(=O)[O-])CCN(CC(C)OCC(C)OCC(C)OCc2ccc(C)cc2)C(=O)C1 (stereo not drawn) [4-methylbenzylpoly(2 moles)oxypropyleneoxypropyl-7-methyl-1-azonia-4-azacyclohept-7-en-5-one-1-acetate] |  |  |  |  |  |  | -0.01 mg/cm^2 | -0.01 mg/cm^2 | +0.02 mg/cm^2 | -0.01 mg/cm^2 | -0.03 mg/cm^2 | 0 mg/cm^2 |
